Source: PubChem BioAssay AID1745856 (National Center for Advancing Translational Sciences (NCATS), 2022)
This is a selection; strong and weak results do not stand in their true shares. Results filed as inconclusive are left out. The source made the active and inactive calls. Calls come from the whole dose curve.

Test: Primary qHTS Assay for Foot and Mouth Disease Virus Antivirals against NCGC Sytravon and CBC Compound Libraries: Firefly Luciferase Signal; note: nearly all actives have a fitted effect of over 60% in size
Details: FMDV antiviral cell assay; at 11.5 µM (top of the series)
% is set by controls: 0 for no effect and ±100 for the full control effect.

Question: For OCCSCCO, which activity change, negative = inhibition is on record?
Answer: The activity change, negative = inhibition was inactive: 11.2%.
